From PMC11904634

Amino acid sequences for entries named in this document (tags omitted). A change or cut given only in a name is not applied to a line headed by its entry.
UniProt Q8Z787: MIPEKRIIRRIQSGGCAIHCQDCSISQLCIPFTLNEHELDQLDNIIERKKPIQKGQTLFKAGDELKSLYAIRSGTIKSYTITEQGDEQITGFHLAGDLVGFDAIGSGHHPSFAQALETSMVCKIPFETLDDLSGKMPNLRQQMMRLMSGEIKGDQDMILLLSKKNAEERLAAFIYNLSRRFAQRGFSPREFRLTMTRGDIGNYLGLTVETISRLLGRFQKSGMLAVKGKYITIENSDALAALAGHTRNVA

Target: MBP-FNR (UniProt Q8Z787)
Experiment: EMSA
Settings: 20 mM sodium phosphate (pH 6.8 for MBP-STY2660, pH 8 for MBP-FNR), 5% glycerol, 0.1 mg/ml BSA, 1 mM DTT (listed as 10x buffer); 20 min at 37 C; 6% PAGE, ethidium bromide; recombinant protein; residues 1-250; protein details: N-terminal MBP (pMAL-c2X); probe letters rebuilt from the primers and the genome

GGGGTACCCTTTTACGCTATGACTGACCGCAGACTGGCTCAGTCCAATCCTGTCCCCTGCCCGACTGAAACTTTTGGCCTGGGCGACGGTAATAAAATACGCAGTTGACGCAGTGAATAGTTCATCGACTAGATTCATATATAGATGCAATAAATCAATTTTATTTCTCAAAGCGAAAAACGCAAAATAGCTGCACCGACTTTCAGGAGTTTTTATGAAACTTTTTCGTATCCTTGACCCTTTCACGCTGACACTTATCACCGTGGTACTACTGGCCTCTTTTTTCCCGGCGGAAGGCGGCTTTGTGCCTGTCGTTGAAGGCATTACGACAGCGGCCATCGCTCTGCTGTTTTTTATGCATGGTGCGAAGCTTTCGCGTGAAGCGATCATCGCTGGCGGCAGCCACTGGCGGTTGCATCTGTGGGTCATGTGTAGCACTTTTGTGCTCTTTCCTGTCCTCGGCGTACTGTTTGCCTGGTGGGCGCCTGTCAATGTCGACCCTATGCTCTACAGCGGCTTTGGATCCCG (double strand) [STY2660 -395+118 (513 bp)]
binding result: binds

Construct, isoform or probe ends are uncertain for at least one entry.
